From PubChem BioAssay AID624414 (National Center for Advancing Translational Sciences (NCATS), 2012)
This is a selection; strong and weak results do not stand in their true shares. The source made the active and inactive calls. Cut-off read from the data, not from the text of the source: active = activation above about 50%; inconclusive = mostly about 30% to 49%; inactive = weaker than that.
Note: 0% is about no effect.

Protein sequences, listed by entry. Tags and fused reporters are not part of them.
UniProt Q9GZU1, whole entry: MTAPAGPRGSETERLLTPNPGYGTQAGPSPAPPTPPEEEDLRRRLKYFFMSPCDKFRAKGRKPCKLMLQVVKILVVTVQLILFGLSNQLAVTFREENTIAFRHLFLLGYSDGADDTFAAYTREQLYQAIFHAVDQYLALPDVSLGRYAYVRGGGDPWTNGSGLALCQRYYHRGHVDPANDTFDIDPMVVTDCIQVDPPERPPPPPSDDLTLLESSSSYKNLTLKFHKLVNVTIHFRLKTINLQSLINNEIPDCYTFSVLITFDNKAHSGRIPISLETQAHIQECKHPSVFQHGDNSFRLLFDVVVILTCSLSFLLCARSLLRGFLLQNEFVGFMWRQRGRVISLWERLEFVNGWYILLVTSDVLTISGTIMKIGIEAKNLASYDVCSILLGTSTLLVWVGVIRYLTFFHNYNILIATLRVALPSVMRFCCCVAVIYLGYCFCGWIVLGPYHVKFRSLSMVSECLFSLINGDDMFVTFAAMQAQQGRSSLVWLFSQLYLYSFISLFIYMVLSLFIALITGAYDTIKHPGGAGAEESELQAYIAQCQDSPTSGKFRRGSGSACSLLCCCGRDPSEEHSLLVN

These molecules were tested against Mucolipin-1 (Homo sapiens) (UniProt Q9GZU1) (assay: qHTS for Agonists of the Human Mucolipin Transient Receptor Potential 1 (TRPML1)). Details: TRPML1-expressing cells, Ca2+ dye fluorescence, FDSS; hits give high values.
From the text: Mutations of human Mucolipin transient receptor potential 1 (TRPML1) cause type IV mucolipidosis (ML4), a devastating neurodegenerative disease in young children. […] Currently, there is no treatment for ML4. […] Under physiological conditions, TRPMLs regulate membrane trafficking by transducing information about PI(3,5)P2 levels into changes in juxtaorganellar Ca2+, thereby triggering membrane fusion/fission events in the late endocytic pathways (endolysosomal trafficking). In addition, TRPML1 mediates release of Fe2+ from late endosomes and lysosomes, which is essential for cellular iron metabolism. Thus, impaired ion (Ca2+ and Fe2+) homeostasis underlies lysosomal dysfunction and ML4 phenotypes. In ML4 cells, the problem is twofold. First, defective Ca2+-dependent membrane trafficking due to TRPML1-deficiency causes accumulation of lipids and other bio-materials in the lysosome. The second strike comes from the lysosomal iron overload (due to impairment of TRPML1's Fe2+ conductivity), which converts the accumulated materials into the nondegradable (resistant to lysosomal degradation) lipofuscin (also called aging pigment) in the lysosome. Lipofuscin accumulation dramatically compromises the functions of lysosomes.
Niemann-Pick type C (NPC) disease is another lysosome storage disease (LSD) with severe neurodegeneration during the childhood. Currently, there is no cure for NPC. […] Thus, TRPML1 is likely to be an essential regulator of lysosome ion homeostasis. We specifically hypothesize that stimulating TRPML1's Fe2+/Ca2+ channel activity in the lysosome using synthetic agonists can alleviate neurodegeneration associated with ML4 or NPC.
To this end, a high throughput screen was developed in a miniaturized format to screen against the Molecular Libraries Small Molecule Repository (MLSMR) to find small molecules that act either as inhibitors or agonist against the TRPML1 channel.
NIH Chemical Genomics Center [NCGC]
NIH Molecular Libraries Probe Centers Network [MLPCN]
Assay Submitter (PI): Haoxing Xu, University of Michigan Ann Arbor
TRPML1-DL cells are dissociated from flasks, counted and, brought up to a density of 500,000 cells per mL of media containing a 1X Tet inducer. Using a Multidrop Combi, 3uL of this cell solution is dispensed to each well of a 1536 TC treated, black, clear bottom hi base plate for a final cell density of 1,500 cells per well. The assay plates are incubated overnight (approximately 16 hours) at 37 degrees C and 5% CO2. Using a Multidrop Combi, 2uL of ABD Ca8 no wash dye plus quencher is added to each well. The assay plates incubate at room temperature in the dark for 45-90 minutes. The assay plate is read on the FDSS using the following protocol: 10 second baseline read, 23nL of compounds and controls are added using 1536 pintool, agonist read for 110 seconds, 1 uL EC80 addition (4uM final 54-4 diluted in media), antagonist read for 110 seconds.
With `CCOP1(=S)c2c(C)nn(CCC#N)c2N=C(c2ccccc2F)N1C` (stereo not given) the activation was inactive: 0.177%.
`O=P(Nc1nccs1)(Oc1ccccc1)Oc1ccccc1` was tested, and the activation was inactive: 0.479%.
With `O=P(Nc1nccs1)(c1ccccc1)c1nc2ccccc2s1` (stereo not given) the activation was inactive: 0.138%.
In the case of `CS(=O)(=O)c1cc([N+](=O)[O-])c2no[n+]([O-])c2c1`, the activation is reported as inactive: 5.83%.
For `N#CCCN(C(=O)COC(=O)C(O)(c1ccccc1)c1ccccc1)c1ccc(F)cc1`, the activation was inactive: 3.1%.
In the case of `CN(C(=O)Cc1ccccc1)[C@@H]1CC[C@]2(CCCO2)C[C@H]1N1CCCC1`, the activation is reported as inactive: -0.348%.
`CCOP1(=S)c2c(C)nn(CCC#N)c2N=C(c2ccc(F)cc2)N1C` (stereo not given) was tested, and the activation was inactive: 0.763%.
In the case of `O=[N+]([O-])c1ccc2c(c1)nnn2O`, the activation is reported as inactive: 0.953%.
With `CN(C)C(=O)c1cc([N+](=O)[O-])cc2c1-c1c(cc([N+](=O)[O-])cc1[N+](=O)[O-])C2=O` the activation was inactive: 0.145%.
`CC1=NCCc2c1[nH]c1ccccc21.O=[N+]([O-])c1cc([N+](=O)[O-])c(O)c([N+](=O)[O-])c1` was tested, and the activation was inactive: -0.631%.
In the case of `CN(C(=O)Cc1ccc(Cl)c(Cl)c1)[C@H]1CC[C@@]2(CCCO2)C[C@@H]1N1CCCC1`, the activation is reported as inactive: 0.626%.
In the case of `NC(=O)Nc1ccc([As](=O)(O)O)cc1`, the activation is reported as inactive: -0.299%.
For `[N-]=[N+]=NC1CCCCC1NC(=O)c1cc([N+](=O)[O-])cc([N+](=O)[O-])c1` (stereo not given), the activation was inactive: -0.532%.
For `Cc1ccc(OP(=O)(Nc2ccc([N+](=O)[O-])cn2)Oc2ccc(C)cc2)cc1`, the activation was inactive: 2.53%.
With `CC(C)(C)c1ccc(OP(C)(=O)Nc2ccc(SC(F)(F)F)cc2)cc1` (stereo not given) the activation was inactive: 15.7%.
In the case of `ClCCN(CCCl)c1ccc(CC2C=CC=C2)cc1`, the activation is reported as inactive: 0.38%.
In the case of `Cc1cccc(C)c1OP(C)(N)=O` (stereo not given), the activation is reported as inactive: 1%.
In the case of `O=[N+]([O-])c1ccc2c(c1)C=Nc1ccccc1O2`, the activation is reported as inactive: 0.0548%.
In the case of `Cc1ccc2nc3c(c(C)c2c1)CC(C(Cl)Cl)S3` (stereo not given), the activation is reported as inactive: -0.0397%.
In the case of `O=[N+]([O-])c1cc([N+](=O)[O-])c(Nc2cccnc2)c([N+](=O)[O-])c1`, the activation is reported as inactive: 3.1%.
`C[As](=O)(O)c1cccc(C(=O)O)c1` was tested, and the activation was inactive: 0.349%.
With `O=[As](O)(c1ccc(O)cc1)c1ccccc1O` the activation was inactive: -0.305%.
In the case of `O=[N+]([O-])c1ccc(-c2cc([N+](=O)[O-])c(O)c([N+](=O)[O-])c2)cc1`, the activation is reported as inactive: -0.293%.
`COc1cc(C(=O)NCC2(N3CCOCC3)CCCCC2)ccc1OCC(C)C` was tested, and the activation was inactive: 0.18%.
`COc1ccccc1OP(C)(=O)Nc1cc(Cl)ccc1C` (stereo not given) was tested, and the activation was inactive: 0.932%.
